For at least one entry, the source does not settle the construct or the ends of the probe.

The chains behind the UniProt entries cited, without tags or fusion partners. Where a name states a change or a piece, a line headed by the entry shows the natural chain unless it says otherwise.
UniProt P03523: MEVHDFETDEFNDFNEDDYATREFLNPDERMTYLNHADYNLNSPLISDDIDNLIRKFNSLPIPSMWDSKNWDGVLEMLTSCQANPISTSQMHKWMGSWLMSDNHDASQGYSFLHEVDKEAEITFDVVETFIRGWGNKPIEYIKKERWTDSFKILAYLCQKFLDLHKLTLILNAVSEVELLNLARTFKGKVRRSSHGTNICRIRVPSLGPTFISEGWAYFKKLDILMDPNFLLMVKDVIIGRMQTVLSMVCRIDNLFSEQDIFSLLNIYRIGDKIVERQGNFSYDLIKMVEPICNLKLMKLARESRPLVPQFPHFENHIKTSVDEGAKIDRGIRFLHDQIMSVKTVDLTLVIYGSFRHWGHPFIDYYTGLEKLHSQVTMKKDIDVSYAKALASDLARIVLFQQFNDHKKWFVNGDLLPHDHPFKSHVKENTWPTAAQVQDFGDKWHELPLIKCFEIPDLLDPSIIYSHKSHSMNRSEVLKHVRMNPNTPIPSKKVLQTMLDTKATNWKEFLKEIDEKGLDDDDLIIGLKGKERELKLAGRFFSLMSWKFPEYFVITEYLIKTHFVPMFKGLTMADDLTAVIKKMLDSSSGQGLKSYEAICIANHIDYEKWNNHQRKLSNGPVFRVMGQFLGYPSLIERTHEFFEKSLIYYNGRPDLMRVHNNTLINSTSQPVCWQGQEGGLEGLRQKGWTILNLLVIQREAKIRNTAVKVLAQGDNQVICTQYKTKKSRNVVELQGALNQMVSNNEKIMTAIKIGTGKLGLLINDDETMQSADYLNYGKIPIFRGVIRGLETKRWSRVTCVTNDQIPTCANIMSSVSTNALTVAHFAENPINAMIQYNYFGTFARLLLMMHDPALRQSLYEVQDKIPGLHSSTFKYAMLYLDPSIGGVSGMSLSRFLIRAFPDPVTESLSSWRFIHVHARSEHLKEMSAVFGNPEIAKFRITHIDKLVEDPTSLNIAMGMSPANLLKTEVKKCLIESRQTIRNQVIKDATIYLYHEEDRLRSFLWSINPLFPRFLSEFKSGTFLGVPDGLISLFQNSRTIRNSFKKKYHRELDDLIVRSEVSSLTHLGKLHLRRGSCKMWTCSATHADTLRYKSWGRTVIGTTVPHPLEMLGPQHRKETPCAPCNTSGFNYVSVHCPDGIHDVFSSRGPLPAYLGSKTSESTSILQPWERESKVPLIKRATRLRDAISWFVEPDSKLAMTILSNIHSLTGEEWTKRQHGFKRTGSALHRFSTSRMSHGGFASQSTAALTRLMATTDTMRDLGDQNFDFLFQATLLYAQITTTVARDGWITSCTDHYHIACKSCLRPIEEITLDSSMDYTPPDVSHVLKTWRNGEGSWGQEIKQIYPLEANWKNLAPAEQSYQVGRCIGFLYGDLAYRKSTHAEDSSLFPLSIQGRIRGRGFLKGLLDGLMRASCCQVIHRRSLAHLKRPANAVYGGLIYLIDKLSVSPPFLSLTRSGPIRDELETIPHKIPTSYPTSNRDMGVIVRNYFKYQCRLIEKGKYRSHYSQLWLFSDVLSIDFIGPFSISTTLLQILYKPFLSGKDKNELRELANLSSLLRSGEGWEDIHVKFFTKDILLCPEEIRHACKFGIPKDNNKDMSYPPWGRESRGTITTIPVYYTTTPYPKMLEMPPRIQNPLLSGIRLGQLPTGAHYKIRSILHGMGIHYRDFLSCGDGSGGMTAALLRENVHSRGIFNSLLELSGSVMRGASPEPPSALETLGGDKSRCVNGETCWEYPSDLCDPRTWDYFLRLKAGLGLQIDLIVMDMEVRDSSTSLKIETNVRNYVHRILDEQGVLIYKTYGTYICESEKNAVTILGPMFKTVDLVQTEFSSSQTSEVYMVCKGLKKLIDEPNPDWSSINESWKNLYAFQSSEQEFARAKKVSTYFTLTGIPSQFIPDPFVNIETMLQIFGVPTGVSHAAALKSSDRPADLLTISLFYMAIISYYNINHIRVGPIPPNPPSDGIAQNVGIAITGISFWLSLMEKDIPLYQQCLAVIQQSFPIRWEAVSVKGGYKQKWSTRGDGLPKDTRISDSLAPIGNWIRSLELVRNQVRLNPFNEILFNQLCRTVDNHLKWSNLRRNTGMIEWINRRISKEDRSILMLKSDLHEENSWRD

This series deals with VSV L protein (wild type, rVSV) (Vesicular stomatitis Indiana virus) (UniProt P03523). The series can be described thus: binding assay. The following applies: 5' Gppp cap (7mGpppAm when fully methylated); only the motif is given.

Turning to AACAG, the binding result is on record as “binds”.
